The entries are a selection whose mix differs from that of the whole data set. The source made the active and inactive calls. Cut-off read from the data, not from the text of the source: active = inhibition above about 12%; inactive = the rest.

A short description of the assay: reduced growth of AddAB-expressing E. coli cells – absorbance, AddAB inhibitor project, primary screen (AID 435030).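 Note: 0% = vehicle wells of infected cells.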 The following applies: E. coli expressing H. pylori AddAB, at 11.9 µM, hits give high values.
Usually inhibition stands for the change of the read-out against control, counted positive when it falls. As to `COc1ccc(Cl)cc1C(=O)NCC1(N2CCOCC2)CCCCC1`, the inhibition was inactive: 1.79%.

On to `O=C(OC1CN2CCC1CC2)C1c2ccccc2Oc2ccccc21` (stereo not drawn), for which the inhibition was inactive: -2.14%.

For the molecule `N#CC1(Nc2ccccc2)CCN(Cc2ccccc2)CC1`, the inhibition was inactive: 0.97%.

As to `O=C(NCC1(N2CCCCC2)CCCCC1)c1ccc(Cl)s1`, the inhibition was inactive: 0.58%.

As for `CCOC(=O)N1CCC(Nc2ccc(OC)cc2)CC1`, the inhibition was inactive: -0.08%.

Turning to `Cc1cc(C)cc(N(C(=O)c2ccccc2)C2CCN(C(=O)OC(C)(C)C)CC2)c1`, the inhibition was inactive: -0.98%.

Consider `O=C(NCC1(N2CCCCC2)CCCCC1)c1ccc(Cl)nc1`, for which the inhibition was inactive: -1.02%.

Consider `O=C(NCC1(N2CCOCC2)CCCCC1)c1cc2ccccc2o1`, for which the inhibition was inactive: 2.7%.

Take `CSc1ccccc1C(=O)NCC1(N2CCCCC2)CCCCC1`: the inhibition is inactive: 0.25%.

For the molecule `CC(C)(C)OC(=O)N1CCC(N(C(=O)c2ccccc2)c2ccc(F)cc2)CC1`, the inhibition is inactive: -1.62%.

As to `COc1ccc(C(=O)NCC2(N3CCCCC3)CCCCC2)c(OC)c1OC`, the inhibition is inactive: -2.49%.

Take `COc1ccc(C(=O)NCC2(N3CCCCC3)CCCCC2)cc1`: the inhibition is inactive: 3.2%.

As for `O=C(NCC1(N2CCCCC2)CCCCC1)c1cccs1`, the inhibition is inactive: -1.71%.

As to `O=C(NCC1(N2CCCCC2)CCCCC1)c1ccc(=O)[nH]c1`, the inhibition was inactive: 4.32%.

Turning to `Cc1ccc(OCC(C)C)c(CN(CCCl)CCCl)c1`, the inhibition is inactive: -1.96%.

As for `CCOC(=O)N1CCC(Nc2cccc(C)c2)CC1`, the inhibition was inactive: 1.5%.

As for `COc1ccc(NC2CCN(CCc3ccccc3)CC2)c(OC)c1`, the inhibition is inactive: 0.09%.

For `O=C(NCC1(N2CCCCC2)CCCCC1)c1ccc(F)cc1`, the inhibition was inactive: 4.68%.

Turning to `CCOc1ccc(C)cc1CN(CCCl)CCCl`, the inhibition is inactive: 0.08%.

On to `O=C(NCC1(N2CCOCC2)CCCCC1)c1cc(=O)[nH]c2ccccc12`, for which the inhibition was inactive: 6.88%.

As to `COc1cc(C(=O)NCC2(N3CCCCC3)CCCCC2)ccc1OC(F)F`, the inhibition is inactive: 4.74%.

On to `COc1ccc(NC2CCN(C(=O)OC(C)(C)C)CC2)cc1`, for which the inhibition is inactive: -0.85%.

As for `CN1CCN(CCOC(=O)C(O)(c2ccccc2)c2ccccc2)CC1`, the inhibition was inactive: 2.67%.

`O=C(NCC1(N2CCCCC2)CCCCC1)c1cccc(C(F)(F)F)c1`: the inhibition is inactive: 2.94%.

Regarding `N#CC1(Nc2ccccc2)CCN(CCc2ccccc2)CC1`, the inhibition was inactive: 1.44%.

`CCN1CCC(Nc2ccc(Cl)cc2)CC1`: the inhibition was inactive: 2.5%.

`O=C(NCC1(N2CCCCC2)CCCCC1)c1cccc([N+](=O)[O-])c1`: the inhibition was inactive: 2.84%.

Regarding `O=C(NCC1(N2CCCCC2)CCCCC1)c1ccc(OC(F)F)cc1`, the inhibition is inactive: 3.33%.

As to `O=C(NCC1(N2CCCCC2)CCCCC1)c1cncc(Br)c1`, the inhibition was inactive: 0.94%.

Turning to `CN1CCC(Nc2cccc(F)c2)CC1`, the inhibition is inactive: 0.94%.

Regarding `O=C(NCC1(N2CCOCC2)CCCCC1)c1cc(F)c(F)cc1Cl`, the inhibition was inactive: -0.5%.

As for `COc1cc(OC)c(C(=O)NCC2(N(C)C)CCCCC2)cc1OC`, the inhibition is inactive: 2.88%.

Take `CC(C)c1ccc(NC2CCN(C(=O)OC(C)(C)C)CC2)cc1`: the inhibition was inactive: 4.29%.

Consider `CN(C)c1cccc(C(=O)NCC2(N3CCCCC3)CCCCC2)c1`, for which the inhibition is inactive: 2.2%.

On to `COc1ccc(CN(CCCl)CCCl)cc1Cl`, for which the inhibition is inactive: 1.88%.

Take `O=C(OC1CN2CCC1CC2)C1c2ccccc2C=Cc2ccccc21` (stereo not drawn): the inhibition was inactive: 1.12%.

Regarding `CCc1cc(C(=O)NCC2(N3CCCCC3)CCCCC2)sc1C`, the inhibition was inactive: 1.72%.

As to `CCOC(=O)N1CCC(Nc2ccc(C)cc2)CC1`, the inhibition is inactive: 3.17%.

Consider `N/C(=N\O)c1c(N)no[n+]1[O-]`, for which the inhibition is inactive: 3.49%.

Consider `COc1ccc(C(=O)NCC2(N3CCOCC3)CCCCC2)cc1OC`, for which the inhibition was inactive: 2.15%.

Regarding `COc1cc(C(=O)NCC2(N3CCOCC3)CCCCC2)cc(OC)c1C`, the inhibition is inactive: 1.17%.

For `O=C(NCC1(N2CCOCC2)CCCCC1)c1cc(Br)ccc1Cl`, the inhibition is inactive: 0.43%.

Consider `CN(C)C1(CNC(=O)c2cccc(C#N)c2)CCCCC1`, for which the inhibition is inactive: 1.73%.

Regarding `CCCN1CCC(Nc2cc(OC)cc(OC)c2)CC1`, the inhibition was inactive: 4.17%.

In the case of `c1ccc(CN2CCC(Nc3ccccc3)CC2)cc1`, the inhibition is inactive: 3.93%.

With `N#Cc1ccc(C(=O)NCC2(N3CCCCC3)CCCCC2)cc1`, the inhibition is inactive: 1.98%.

As to `CC(C)(C)OC(=O)N1CCC(N(C(=O)c2ccccc2)c2ccc(Cl)cc2)CC1`, the inhibition was inactive: -1.4%.

As to `CN(C)c1ccc(C(=O)NCC2(N3CCCCC3)CCCCC2)cc1`, the inhibition was inactive: 4.29%.

As to `O=C(NCC1(N2CCCCC2)CCCCC1)c1ccco1`, the inhibition was inactive: 3.19%.

For the molecule `CCN1CCC(Nc2cccc(F)c2)CC1`, the inhibition is inactive: 5.14%.

Turning to `Fc1ccccc1NC1CCN(Cc2ccccc2)CC1`, the inhibition was inactive: 1.79%.

For `Cc1ccc(C(=O)NCC2(N3CCCCC3)CCCCC2)o1`, the inhibition was inactive: -0.16%.

`COc1cc(OC)cc(C(=O)NCC2(N3CCCCC3)CCCCC2)c1`: the inhibition was inactive: 0%.

In the case of `CN1CCC(Nc2ccc(Cl)cc2)CC1`, the inhibition was inactive: 1.67%.

Turning to `CCCOc1ccc(C)cc1CN(CCCl)CCCl`, the inhibition is inactive: -1.1%.

For `COc1cccc(C(=O)N(c2cc(C)cc(C)c2)C2CCN(C(=O)OC(C)(C)C)CC2)c1`, the inhibition is inactive: 0.97%.

As to `COc1cc(OC)cc(C(=O)NCC2(N3CCOCC3)CCCCC2)c1`, the inhibition is inactive: 6.44%.

As to `CCC(CO)(C(=O)OC1CN2CCC1CC2)c1ccccc1` (stereo not drawn), the inhibition is inactive: -2.54%.

Turning to `O=C(O)C1(Nc2ccccc2)CCN(Cc2ccccc2)CC1`, the inhibition was inactive: -0.25%.

`CC(C)(C)OC(=O)N1CCC(Nc2ccccc2)CC1`: the inhibition was inactive: 1.02%.

For the molecule `CCCOc1ccc(C(=O)NCC2(N(C)C)CCCCC2)cc1`, the inhibition was inactive: -0.41%.

Consider `CN1CCC(Nc2ccc(F)c(Cl)c2)CC1`, for which the inhibition is inactive: 2.17%.

On to `CCOc1ncccc1C(=O)NCC1(N2CCOCC2)CCCCC1`, for which the inhibition was inactive: 2.27%.

(Values after PubChem BioAssay AID435030 (The Scripps Research Institute Molecular Screening Center, 2010).)
